Compound potency records, mixed from different reports. Data source: NIAID ChemDB in PubChem.

All rows: enzyme or target tests; species: Toxoplasma gondii

Percent inhibition refers to the dose given; in toxicity tests it is the harm to the cells. ICn: concentration for n% inhibition. Rows are shuffled and stem from different studies. Blank or dashed fields: not listed here.

smiles | endpoint | protein | strain | tested at | value
c1ncc2[nH]cnc2n1 | IC50 | Phosphoribosyltransferase | RH | - | >900 µM
O=c1cc(Cc2ccccc2)[nH]c(=O)[nH]1 | inhibition | Uracil phosphoribosyltransferase | RH | 2000 µM | <5%
c1c[nH]cn1 | inhibition | Phosphoribosyltransferase | RH | 900 µM | <10%
Clc1cnccn1 | inhibition | Uracil phosphoribosyltransferase | RH | 2000 µM | <10%
CN1C(=O)N(C)C(=O)C(C)(NS(=O)(=O)c2ccc(N)cc2)C1=O | IC50 | DHPS | - | - | <510 µM
NS(=O)(=O)c1nc[nH]c1[N+](=O)[O-] | inhibition | Phosphoribosyltransferase | RH | 900 µM | <10%
Nc1nccc(=O)[nH]1 | inhibition | Uracil phosphoribosyltransferase | RH | 2000 µM | <5%
Cc1noc(NS(=O)(=O)c2ccc(N)cc2)c1C | IC50 | DHPS | - | - | 1150 µM
CC1(C)N=C(N)N=C(N)N1c1ccc(OCC(=O)Nc2cccc(S(=O)(=O)F)c2)cc1 | IC50 | DHFR | RH | - | 0.026 µM
Cc1cncc(NS(=O)(=O)c2ccc(N)cc2)n1 | IC50 | DHPS | - | - | 1270 µM
Nc1nc2cc[nH]c2c(=O)[nH]1 | Ki | Phosphoribosyltransferase | RH | - | 14 µM
CC1(C)N=C(N)N=C(N)N1c1ccc(OCCOc2ccc([N+](=O)[O-])cc2)cc1 | IC50 | DHFR | RH | - | 0.027 µM
Nc1ccc(S(=O)(=O)Nc2cc(Br)cc(Br)c2)cc1 | IC50 | DHPS | - | - | 26 µM
CS(=O)(=O)c1cc(=O)[nH]c(=O)[nH]1 | IC50 | Uracil phosphoribosyltransferase | RH | - | >2000 µM
Nc1ncc[nH]1 | inhibition | Phosphoribosyltransferase | RH | 900 µM | <10%
CC1(C)N=C(N)N=C(N)N1c1cccc(CCCCc2ccc(S(=O)(=O)F)c(Cl)c2)c1.CCS(=O)(=O)O | IC50 | DHFR | RH | - | 0.039 µM
O=C(O)c1cnccn1 | IC50 | Uracil phosphoribosyltransferase | RH | - | >2000 µM
O=c1[nH]c(=S)c2[nH]cnc2[nH]1 | Ki | Phosphoribosyltransferase | RH | - | 246 µM
O=c1cc(CCl)[nH]c(=O)[nH]1 | inhibition | Uracil phosphoribosyltransferase | RH | 2000 µM | <5%
CC1(C)N=C(N)N=C(N)N1c1cccc(S(=O)(=O)F)c1.CCS(=O)(=O)O | IC50 | DHFR | RH | - | 0.34 µM
O=c1cc(O)nc[nH]1 | inhibition | Uracil phosphoribosyltransferase | RH | 2000 µM | <5%
CCc1c(CNc2ccc(C(=O)NC(CC(=O)O)C(=O)O)cc2)ccc2nc(N)nc(N)c12 | IC50 | DHFR | RH | - | 0.00135 µM
O=C1NC(=O)C(Cc2ccc(OCc3ccccc3)cc2)C(=O)N1 | inhibition | Uracil phosphoribosyltransferase | RH | 2000 µM | <5%
CSc1ccc(N2C(N)=NC(N)=NC2(C)C)cc1 | IC50 | DHFR | RH | - | 1.52 µM

A second listing of 3 rows from above:

smiles	endpoint	protein	strain	tested at	value
O=c1cc(O)nc[nH]1	inhibition	Uracil phosphoribosyltransferase	RH	2000 µM	<5%
Nc1ncc[nH]1	inhibition	Phosphoribosyltransferase	RH	900 µM	<10%
O=c1[nH]c(=S)c2[nH]cnc2[nH]1	Ki	Phosphoribosyltransferase	RH	-	246 µM